The target in the assay is E. coli DXR (Escherichia coli, UniProt P45568). The conditions noted are these: 100 µM.

The chains behind the UniProt entries cited, without tags or fusion partners.
UniProt P45568, whole entry: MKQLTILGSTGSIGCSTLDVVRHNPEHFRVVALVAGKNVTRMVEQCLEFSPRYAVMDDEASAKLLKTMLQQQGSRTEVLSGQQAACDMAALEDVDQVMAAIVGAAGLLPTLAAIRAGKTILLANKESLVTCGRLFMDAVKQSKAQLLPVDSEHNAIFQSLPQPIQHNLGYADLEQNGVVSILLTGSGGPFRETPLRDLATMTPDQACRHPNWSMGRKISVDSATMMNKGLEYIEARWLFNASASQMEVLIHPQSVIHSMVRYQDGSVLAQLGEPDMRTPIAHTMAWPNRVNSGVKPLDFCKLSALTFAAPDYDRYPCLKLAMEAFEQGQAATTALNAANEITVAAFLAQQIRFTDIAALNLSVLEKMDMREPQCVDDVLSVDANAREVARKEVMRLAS

Structures were worked out from names or drawings and are uncertain.

What is called inhibition is the relative decrease from the control value, in per cent. The low end stands for little suppression, the high end for strong suppression. For `O=P(O)(O)Cc1ccccn1` [compound 17], the inhibition is 25.7%.

Values taken from patent US20130065857A1, “NOVEL DXR INHIBITORS FOR ANTIMICROBIAL THERAPY” (Baylor College of Medicine, priority 2009, published 2013).
